Results of unrelated studies side by side (data: NIAID ChemDB).

Shared fields: whole-cell or culture tests; species: Mycobacterium avium complex

Conditions beyond the fields shown may differ between rows.

smiles	strain	endpoint	value
O=C1c2cc(/C=C/CCCCO)ccc2-n2c1nc1ccncc1c2=O	19075	MIC	5 µg/mL
CC(C)N=c1cc2n(-c3ccc(Cl)cc3)c3ccccc3nc-2cc1Nc1ccc(Cl)cc1	1625	MIC	0.25 µg/mL
CC(C)N=C(N)N(OCCCOc1cc(Cl)c(Cl)cc1Cl)C(=N)N	101	MIC	16 µg/mL
O=C1c2cc(Br)ccc2-n2c1nc1ccccc1c2=O	19075	MIC	0.25 µg/mL
CC[C@H]1OC(=O)C[C@@H](O)[C@H](C)[C@@H](O[C@@H]2O[C@H](C)[C@H](O[C@H]3C[C@@](C)(O)[C@@H](O)[C@H](C)O3)[C@H](N(C)C)[C@H]2O)[C@@H](CCOc2ccccc2)C[C@@H](C)C(=O)/C=C/C(C)=C/[C@@H]1COC1O[C@H](C)[C@@H](O)[C@@H](OC)[C@H]1OC	28 strains	MIC90	≥64 µg/mL
CC[C@H]1OC(=O)[C@H](C)[C@@H](O[C@H]2C[C@@](C)(OC)[C@@H](OC(C)=O)[C@H](C)O2)[C@H](C)[C@@H](O[C@@H]2O[C@H](C)C[C@H](N(C)C)[C@H]2OC(=O)NNCc2ccccc2OC)C(C)(O)C[C@@H](C)/C(=N\OCCCC2CCCCC2)[C@H](C)[C@@H](O)[C@]1(C)O	20039 (clarithromycin-susceptible)	MIC	0.39 µg/mL
C[C@@H]1CN(c2c(F)c(N)c3c(=O)c(C(=O)O)cn(C4CC4)c3c2F)C[C@H](C)N1	18 strains	MIC90	12.5 µg/mL
CC[C@H]1OC(=O)[C@H](C)[C@@H](O[C@H]2C[C@@](C)(OC)[C@@H](O)[C@H](C)O2)[C@H](C)[C@@H](O[C@@H]2O[C@H](C)C[C@H](N(C)C)[C@H]2O)[C@](C)(OC)C[C@@H](C)C(=O)[C@H](C)[C@@H](O)[C@]1(C)O	Isolate 90-0727	MIC	2 µg/mL
CC[C@H]1OC(=O)[C@H](C)[C@@H](O[C@H]2C[C@@](C)(OC)[C@@H](O)[C@H](C)O2)[C@H](C)[C@@H](O[C@@H]2O[C@H](C)C[C@H](N(C)C)[C@H]2O)[C@](C)(O)C[C@@H](C)CN(C)[C@H](C)[C@@H](O)[C@]1(C)O	28 strains	MIC90	32 µg/mL
CCCCCCCCc1ccc2nc3n(c(=O)c2c1)-c1ccc(Cl)cc1C3=O	19075	MIC	5 µg/mL
CN1CCCC1CCN=c1cc2n(-c3ccc(Cl)cc3)c3ccccc3nc-2cc1Nc1ccccc1	10 strains (HIV+)	MIC90	0.83 µg/mL
CCCCCCCCCCCCCCNNC(=O)O[C@H]1[C@H](O[C@@H]2[C@@H](C)[C@H](O[C@H]3C[C@@](C)(OC)[C@@H](OC(C)=O)[C@H](C)O3)[C@@H](C)C(=O)O[C@H](CC)[C@@](C)(O)[C@H](O)[C@@H](C)/C(=N/OCCCC3CCCCC3)[C@H](C)CC2(C)O)O[C@H](C)C[C@@H]1N(C)C	20096 (clarithromycin-resistant)	MIC	>50 µg/mL
CC(C)N=C(N)/N=C(\N)NOCCCOc1cc(Cl)c(Cl)cc1Cl	KT	MIC	32 µg/mL
COc1cccc2c1nc1cccc(OC)c1[n+]2[O-]	100	MIC	16 µg/mL
CC[C@H]1OC(=O)[C@H](C)[C@@H](O[C@H]2C[C@@](C)(OC)[C@@H](O)[C@H](C)O2)[C@H](C)[C@@H](O[C@@H]2O[C@H](C)C[C@H](N(C)C)[C@H]2O)[C@](C)(O)C[C@@H](C)/C(=N\OCOCCOC)[C@H](C)[C@@H](O)[C@]1(C)O	28 strains	MIC50	16 µg/mL
CC[C@H]1OC(=O)[C@H](C)[C@@H](O[C@H]2C[C@@](C)(OC)[C@@H](OC(C)=O)[C@H](C)O2)[C@H](C)[C@@H](O[C@@H]2O[C@H](C)C[C@H](N(C)C)[C@H]2O)C(C)(O)C[C@@H](C)/C(=N\OCCc2ccccc2)[C@H](C)[C@@H](O)[C@]1(C)O	20096 (clarithromycin-resistant)	MIC	6.25 µg/mL
COc1cccc2c1n([O-])c1cccc(OC)c1[n+]2=O	5 strains	MIC90	32 µg/mL
CCCCCCCCc1ccc2nc3n(c(=O)c2c1)-c1ccccc1C3=O	19075	MIC	≤0.2 µg/mL
CC[C@H]1OC(=O)C[C@@H](O)[C@H](C)[C@@H](O[C@@H]2O[C@H](C)[C@H](O)[C@H](N(C)C)[C@H]2O)[C@@H](CCOc2ccccc2)C[C@@H](C)C(=O)/C=C/C(C)=C/[C@@H]1COC1O[C@H](C)[C@@H](O)[C@@H](OC)[C@H]1OC	28 strains	MIC90	≥64 µg/mL
Nc1ccc(S(=O)(=O)c2ccc(N)cc2)cc1	LPR	MIC	32 µg/mL
Nc1ccc(S(=O)(=O)c2ccc(N)cc2)cc1	DW28	MIC	>64 µg/mL
CC1CN(C(=O)OC(C)(C)C)CCN1c1cc2nc3n(c(=O)c2cc1F)-c1ccc(I)cc1C3=O	19075	MIC	25 µg/mL
O=C(NCCCl)N1CCC(CN=c2cc3n(-c4ccc(Cl)cc4)c4ccccc4nc-3cc2Nc2ccc(Cl)cc2)CC1	101	MIC	8 µg/mL
CCCCCN(CCCCC)c1ccc2c(=O)n3c(nc2c1)C(=O)c1cc(Cl)ccc1-3	19075	MIC	25 µg/mL
CC[C@H]1OC(=O)[C@H](C)[C@@H](O[C@H]2C[C@@](C)(OC)[C@@H](O)[C@H](C)O2)[C@H](C)[C@@H](O[C@@H]2O[C@H](C)C[C@H](N(C)C)[C@H]2O)[C@](C)(OC)C[C@@H](C)C(=O)[C@H](C)[C@@H](O)[C@]1(C)O	28 strains	MIC90	4 µg/mL
CC[C@H]1OC(=O)[C@H](C)[C@@H](O[C@H]2C[C@@](C)(OC)[C@@H](OC(C)=O)[C@H](C)O2)[C@H](C)[C@@H](O[C@@H]2O[C@H](C)C[C@H](N(C)C)[C@H]2OC(=O)NNCc2ccncc2)C(C)(O)C[C@@H](C)/C(=N\OCCCC2CCCCC2)[C@H](C)[C@@H](O)[C@]1(C)O	20096 (clarithromycin-resistant)	MIC	0.78 µg/mL
COc1cccc2c(=O)n3c(nc12)C(=O)c1cc(S(=O)(=O)N2CCN(C)CC2)ccc1-3	19075	MIC	>25 µg/mL

2 of the rows above, restated:

smiles,strain,endpoint,value
C[C@@H]1CN(c2c(F)c(N)c3c(=O)c(C(=O)O)cn(C4CC4)c3c2F)C[C@H](C)N1,18 strains,MIC90,12.5 µg/mL
CC[C@H]1OC(=O)[C@H](C)[C@@H](O[C@H]2C[C@@](C)(OC)[C@@H](OC(C)=O)[C@H](C)O2)[C@H](C)[C@@H](O[C@@H]2O[C@H](C)C[C@H](N(C)C)[C@H]2OC(=O)NNCc2ccncc2)C(C)(O)C[C@@H](C)/C(=N\OCCCC2CCCCC2)[C@H](C)[C@@H](O)[C@]1(C)O,20096 (clarithromycin-resistant),MIC,0.78 µg/mL

MIC50, MIC90 and the like: level of inhibition, or share of isolates inhibited.